target: SSL5 (Staphylococcal superantigen-like protein 5) (Staphylococcus aureus, UniProt Q2G1S6); assay: printed glycan microarray (CFG Core H), fluorescent-labelled SSL5; conditions: SSL5 200 µg/ml; glycan immobilised through linker

By UniProt entry, the sequences of proteins in these tests, tags left out. Residues count along the entry.
UniProt Q2G1S6, 31-234 limits assumed: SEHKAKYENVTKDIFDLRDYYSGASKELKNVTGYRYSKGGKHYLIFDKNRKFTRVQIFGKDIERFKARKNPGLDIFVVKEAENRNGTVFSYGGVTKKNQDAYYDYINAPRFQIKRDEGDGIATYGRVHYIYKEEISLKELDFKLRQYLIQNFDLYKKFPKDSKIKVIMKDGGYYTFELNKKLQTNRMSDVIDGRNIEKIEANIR

Molecule | Mean RFU [RFU]
CC(=O)N[C@H]1[C@H](OCCN)O[C@H](CO)[C@@H](O[C@@H]2O[C@H](CO)[C@H](O)[C@H](O[C@@H]3O[C@H](CO)[C@@H](O[C@@H]4O[C@H](CO)[C@H](O)[C@H](O[C@@H]5O[C@H](CO)[C@@H](O[C@@H]6O[C@H](CO)[C@H](O)[C@H](O[C@]7(C(=O)O)C[C@H](O)[C@@H](NC(C)=O)[C@H]([C@H](O)[C@H](O)CO)O7)[C@H]6O)[C@H](O[C@@H]6O[C@@H](C)[C@@H](O)[C@@H](O)[C@@H]6O)[C@H]5NC(C)=O)[C@H]4O)[C@H](O[C@@H]4O[C@@H](C)[C@@H](O)[C@@H](O)[C@@H]4O)[C@H]3NC(C)=O)[C@H]2O)[C@@H]1O[C@@H]1O[C@@H](C)[C@@H](O)[C@@H](O)[C@@H]1O | 13772
CC(=O)N[C@H]1[C@H](OC[C@H]2OC(O[C@H](C)[C@H](N)C(=O)O)[C@H](NC(C)=O)[C@@H](O[C@@H]3O[C@H](CO)[C@H](O)[C@H](O)[C@H]3O)[C@H]2O)O[C@H](CO)[C@@H](O[C@@H]2O[C@H](CO)[C@H](O)[C@H](O[C@]3(C(=O)O)C[C@H](O)[C@@H](NC(C)=O)[C@H]([C@H](O)[C@H](O)CO)O3)[C@H]2O)[C@@H]1O (stereo partly shown) | 8578
Neu5Acα2-6Galβ1-4GlcNAcβ1-2Manα1-3(Neu5Acα2-3Galβ1-4GlcNAcβ1-2Manα1-6)Manβ1-4GlcNAcβ1-4GlcNAcβ-Sp12 | 9385
CC(=O)N[C@H]1[C@H](O[C@H]2[C@@H](O)[C@@H](CO)O[C@@H](OCCCN)[C@@H]2O)O[C@H](CO)[C@@H](O[C@@H]2O[C@H](CO)[C@H](O)[C@H](O[C@]3(C(=O)O)C[C@H](O)[C@@H](NC(C)=O)[C@H]([C@H](O)[C@H](O)CO)O3)[C@H]2O)[C@@H]1O[C@@H]1O[C@@H](C)[C@@H](O)[C@@H](O)[C@@H]1O | 17612
CC(=O)N[C@H]1[C@H](OCCN)O[C@H](CO)[C@@H](O[C@@H]2O[C@H](CO)[C@H](O)[C@H](O[C@]3(C(=O)O)C[C@H](O)[C@@H](NC(C)=O)[C@H]([C@H](O)[C@H](O)CO)O3)[C@H]2O)[C@@H]1O[C@@H]1O[C@@H](C)[C@@H](O)[C@@H](O)[C@@H]1O | 14264
CC(=O)N[C@H]1[C@H](OCCN)O[C@H](CO)[C@@H](O[C@@H]2O[C@H](CO)[C@H](O)[C@H](O[C@]3(C(=O)O)C[C@H](O)[C@@H](NC(=O)CO)[C@H]([C@H](O)[C@H](O)CO)O3)[C@H]2O)[C@@H]1O[C@@H]1O[C@@H](C)[C@@H](O)[C@@H](O)[C@@H]1O | 8453
CC(=O)N[C@H]1[C@H](OC[C@H]2OC(O[C@H](C)[C@H](N)C(=O)O)[C@H](NC(C)=O)[C@@H](O[C@@H]3O[C@H](CO)[C@H](O)[C@H](O[C@]4(C(=O)O)C[C@H](O)[C@@H](NC(C)=O)[C@H]([C@H](O)[C@H](O)CO)O4)[C@H]3O)[C@H]2O)O[C@H](CO)[C@@H](O[C@@H]2O[C@H](CO)[C@H](O)[C@H](O[C@]3(C(=O)O)C[C@H](O)[C@@H](NC(C)=O)[C@H]([C@H](O)[C@H](O)CO)O3)[C@H]2O)[C@@H]1O[C@@H]1O[C@@H](C)[C@@H](O)[C@@H](O)[C@@H]1O (stereo partly shown) | 7498
CC(=O)N[C@H]1[C@H](OCCCN)O[C@H](CO)[C@@H](O[C@@H]2O[C@H](CO)[C@H](O)[C@H](O[C@]3(C(=O)O)C[C@H](O)[C@@H](NC(C)=O)[C@H]([C@H](O)[C@H](O)CO)O3)[C@H]2O)[C@@H]1O[C@@H]1O[C@@H](C)[C@@H](O)[C@@H](O)[C@@H]1O | 15098
Neu5Acα2-3Galβ1-3(Neu5Acα2-3Galβ1-4GlcNAcβ1-6)GalNAc–Sp14 | 9183
CC(=O)N[C@H]1[C@H](O[C@H]2[C@@H](O)[C@@H](CO)O[C@@H](O[C@H]3[C@H](O)[C@@H](CO)O[C@@H](OCCN)[C@@H]3NC(C)=O)[C@@H]2O)O[C@H](CO)[C@@H](O[C@@H]2O[C@H](CO)[C@H](O)[C@H](O[C@]3(C(=O)O)C[C@H](O)[C@@H](NC(C)=O)[C@H]([C@H](O)[C@H](O)CO)O3)[C@H]2O)[C@@H]1O | 10202
CC(=O)N[C@@H]1[C@@H](O)[C@H](O[C@@H]2O[C@H](CO)[C@@H](O[C@@H]3O[C@H](CO[C@H]4O[C@H](CO)[C@@H](O)[C@H](O)[C@@H]4O[C@@H]4O[C@H](CO)[C@@H](O[C@@H]5O[C@H](CO[C@]6(C(=O)O)C[C@H](O)[C@@H](NC(C)=O)[C@H]([C@H](O)[C@H](O)CO)O6)[C@H](O)[C@H](O)[C@H]5O)[C@H](O)[C@H]4NC(C)=O)[C@@H](O)[C@H](O[C@H]4O[C@H](CO)[C@@H](O)[C@H](O)[C@@H]4O[C@@H]4O[C@H](CO)[C@@H](O[C@@H]5O[C@H](CO)[C@H](O)[C@H](O[C@]6(C(=O)O)C[C@H](O)[C@@H](NC(C)=O)[C@H]([C@H](O)[C@H](O)CO)O6)[C@H]5O)[C@H](O)[C@H]4NC(C)=O)[C@@H]3O)[C@H](O)[C@H]2NC(C)=O)[C@@H](CO)O[C@H]1NC(=O)C[C@H](N)C(=O)O | 8043
CC(=O)N[C@H]1[C@H](OCCN)O[C@H](CO)[C@@H](O[C@@H]2O[C@H](CO)[C@H](O)[C@H](O[C@]3(C(=O)O)C[C@H](O)[C@@H](NC(C)=O)[C@H]([C@H](O)[C@H](O)CO)O3)[C@H]2NC(C)=O)[C@@H]1O | 9449
CC(=O)N[C@H]1[C@H](OCCN)O[C@H](CO)[C@@H](O[C@@H]2O[C@H](CO)[C@H](O)[C@H](O[C@]3(C(=O)O)C[C@H](O)[C@@H](NC(C)=O)[C@H]([C@H](O)[C@H](O)CO)O3)[C@H]2O)[C@@H]1O | 9762
CC(=O)N[C@H]1[C@H](OCCCN)O[C@H](CO)[C@@H](O[C@@H]2O[C@H](CO)[C@H](O)[C@H](O[C@]3(C(=O)O)C[C@H](O)[C@@H](NC(C)=O)[C@H]([C@H](O)[C@H](O)CO)O3)[C@H]2O)[C@@H]1O | 13546
Neu5Acα2-3Galβ1-4GlcNAcβ1-2Manα1-3(Neu5Acα2-3Galβ1-4GlcNAcβ1-2Manα1-6)Manβ1-4GlcNAcβ1-4GlcNAcβ-Sp12 | 12517
CC(=O)N[C@H]1[C@H](OCCN)O[C@H](CO)[C@@H](O[C@@H]2O[C@H](CO)[C@H](O)[C@H](O[C@@H]3O[C@H](CO)[C@@H](O[C@@H]4O[C@H](CO)[C@H](O)[C@H](O[C@@H]5O[C@H](CO)[C@@H](O[C@@H]6O[C@H](CO)[C@H](O)[C@H](O[C@]7(C(=O)O)C[C@H](O)[C@@H](NC(C)=O)[C@H]([C@H](O)[C@H](O)CO)O7)[C@H]6O)[C@H](O)[C@H]5NC(C)=O)[C@H]4O)[C@H](O)[C@H]3NC(C)=O)[C@H]2O)[C@@H]1O | 15827
CC(=O)N[C@H]1[C@H](OCCCN)O[C@H](CO)[C@@H](O[C@@H]2O[C@H](CO)[C@H](O)[C@H](O[C@@H]3O[C@H](CO)[C@@H](O[C@@H]4O[C@H](CO)[C@H](O)[C@H](O[C@]5(C(=O)O)C[C@H](O)[C@@H](NC(C)=O)[C@H]([C@H](O)[C@H](O)CO)O5)[C@H]4O)[C@H](O[C@@H]4O[C@@H](C)[C@@H](O)[C@@H](O)[C@@H]4O)[C@H]3NC(C)=O)[C@H]2O)[C@@H]1O | 15918
CC(=O)N[C@H]1[C@H](OCCN)O[C@H](CO)[C@@H](O[C@@H]2O[C@H](CO)[C@H](O)[C@H](O[C@@H]3O[C@H](CO)[C@@H](O[C@@H]4O[C@H](CO)[C@H](O)[C@H](O[C@]5(C(=O)O)C[C@H](O)[C@@H](NC(C)=O)[C@H]([C@H](O)[C@H](O)CO)O5)[C@H]4O)[C@H](O)[C@H]3NC(C)=O)[C@H]2O)[C@@H]1O | 14449
CC(=O)N[C@H]1[C@H](OCCCN)O[C@H](CO)[C@@H](O[C@@H]2O[C@H](CO)[C@H](O)[C@H](O[C@]3(C(=O)O)C[C@H](O)[C@@H](NC(C)=O)[C@H]([C@H](O)[C@H](O)CO)O3)[C@H]2O)[C@@H]1O[C@@H]1O[C@H](CO)[C@H](O)[C@H](O[C@]2(C(=O)O)C[C@H](O)[C@@H](NC(C)=O)[C@H]([C@H](O)[C@H](O)CO)O2)[C@H]1O | 7865

Source: paper PMC3084272, “GPVI and GPIbα Mediate Staphylococcal Superantigen-Like Protein 5 (SSL5) Induced Platelet Activation and Direct toward Glycans as Potential Inhibitors” (2011)
